Laboratory results published in article PMC4628118 (Frontiers in Microbiology, 2015).

Molecular target: WT HIV-1 PR (NL4-3) (Human immunodeficiency virus type 1 group M subtype B, UniProt P12497)
Assay: biochemical
Protocol: In vitro transcription and cell-free protein synthesis were performed using WEPRO7240 wheat germ extract (CellFree Sciences, Yokohama, Japan). Transcription was performed using SP6 RNA polymerase, as described previously ([Matsunaga et al., 2014]). The translation reaction was performed in bilayer mode with slight modifications. Briefly, translation mixture (forming the bottom layer) consisted of 10 μl of each mRNA (usually 30–35 μg), 10 μl of WEPRO7240 (CellFree Sciences, Yokohama, Japan), and 0.8 μl of 1 μg/μl creatine kinase (Roche Diagnostics K. K., Tokyo, Japan) in 20.8 μl of SUB-AMIX® (CellFree Sciences, Yokohama, Japan). […] In actual drug susceptibility testing, quantitations of synthesized HIV-1 PR proteins were performed by densitometric scanning of Coomassie Brilliant Blue (CBB)-stained bands as compared with purified HIV-1 PR or bovine serum albumin (BSA) ([Madin et al., 2000]).
CFDSA was performed using cell-free–synthesized PR, substrate peptide, and the AlphaScreen® system (PerkinElmer, Boston, MA, USA). […] Luminescence signals were analyzed with the AlphaScreen detection program using the EnSpire software (PerkinElmer), and light intensities in the presence of the serially diluted inhibitors were used to calculate their IC50 values. PI-resistance levels were determined by comparing the IC50 values of drug-resistant PR with those of NL4-3 PR. […]

Cc1cccc(C)c1OCC(=O)N[C@@H](Cc1ccccc1)[C@@H](O)C[C@H](Cc1ccccc1)NC(=O)[C@H](C(C)C)N1CCCNC1=O [LPV, lopinavir]
IC50: 1.1 nM
